Consider two sequences from PMC4890791.

Common to all, as to test: EMSA
Background: In EMSA bound probe runs differently from free probe, usually more slowly.

The target in data set [1] is T1, RpoE (sigma E) (Vibrio alginolyticus (EPGS)) (UniProt A0A0H0YA85).
T1 sequence: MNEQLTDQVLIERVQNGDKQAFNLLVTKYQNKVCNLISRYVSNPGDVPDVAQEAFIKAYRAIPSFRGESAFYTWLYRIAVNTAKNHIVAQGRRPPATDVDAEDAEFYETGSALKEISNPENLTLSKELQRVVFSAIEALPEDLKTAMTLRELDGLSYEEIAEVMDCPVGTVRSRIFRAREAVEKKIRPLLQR
To be noted: EMSA: 10 mM NaCl, 0.1 mM DTT, 0.1 mM EDTA, 10 mM Tris pH 7.4, 25 C 30 min (22-42 C series in Fig 5C), 20 ng Cy5 probe, poly(dI:dC), recombinant protein, protein details: 6His (pET22b), label: Cy5, probe letters rebuilt from the primers and the genome.

For data set [2], the system named is LuxR (Vibrio alginolyticus). Conditions: two shifted bands; EMSA: 10 mM NaCl, 0.1 mM DTT, 0.1 mM EDTA, 10 mM Tris pH 7.4, 25 C 30 min (22-42 C series in Fig 5C), 20 ng Cy5 probe, poly(dI:dC); recombinant protein; protein details: 6His (pET28a); label: Cy5; probe letters rebuilt from the primers and the genome.
A further data set has as its system RpoE (sigma E) + LuxR. To be noted: cooperative, slower band; EMSA: 10 mM NaCl, 0.1 mM DTT, 0.1 mM EDTA, 10 mM Tris pH 7.4, 25 C 30 min (22-42 C series in Fig 5C), 20 ng Cy5 probe, poly(dI:dC); recombinant protein; protein details: 6His (pET22b),6His (pET28a); label: Cy5; probe letters rebuilt from the primers and the genome.
The next data set concerns LuxR + AphA. To be noted: simultaneous binding, slower band; EMSA: 10 mM NaCl, 0.1 mM DTT, 0.1 mM EDTA, 10 mM Tris pH 7.4, 25 C 30 min (22-42 C series in Fig 5C), 20 ng Cy5 probe, poly(dI:dC); recombinant protein; protein details: 6His (pET28a),6His (pET28a); label: Cy5; probe letters rebuilt from the primers and the genome.

pKd: −log10 of the molar value. Construct, isoform or probe ends are uncertain for at least one entry.

As usually defined, the pKd is the Kd on a negative log10 scale, so that one unit is a factor of ten.

With “TTGTACGATAGCCAGTTCCGCCTGATTGGTCTAAGTTGGGATGAATCTTTGTTACTAATCATCATTGGGAGTCTTTTGGGATGTATTGCGGCGCGCTTTTCTGCGCAACGACATTTAAAAGAAATTGAACCAGTTTAAGTGATGGCGGTCTTATTACTTGGATTTCATTAGCACTAGCTAATTTTGAACCCTTGCTTAGACCAAATGTTTATGGATAATTGCTTCCCCTTCTTGAAACTTGTTCATTTTGAGTTCAAGATATCGAAGCTAAATTGCAATGTAATGCTCCAGATCAGAG (double strand) [PrpoH]”, the binding result in data set [1] (22 C, high affinity) was “binds”. Also, the pKd in data set [1] (42 C) was 7.12.
Take “AGTCGCACGCAAACGATCACCTAATCTTACGGCGTGTAGTGTATCACCACGTTCATTGGGTTGAAAGTCGCATCCTGTTGCCAAAAAATCTTGGAAGAAGGTCTTAGTTTTATAAAGTTCATAGCTAAATTTATCAATAATAATGACATTACTGTATATAAATTGTTCTACAGATGTTGACCTTGTGCATATGCACCATTACACTCATCACTGCTTTAAGCAACTATTAAAATAATCAATTAGGGGGTTACCCCCAATATCAACTCAAATGGCAAGGAAAATGGAT (double strand) [PluxR]”: the binding result (in data set [2]; in the data set on RpoE (sigma E) + LuxR; with LuxR + AphA) was “binds” each time.
